Results of unrelated studies side by side (data: NIAID ChemDB).

Shared fields: tests in culture; species: Hepatitis B virus

An empty or dashed field is not shown. ECn is the concentration giving n% inhibition of infection, replication or growth. a–b is a range or a potency band. Conditions beyond the fields shown may differ between rows. Percent inhibition refers to the dose given; in toxicity tests it is the harm to the cells.

compound | strain | cells | method | measure | tested at | value
CN(C)S(=O)(=O)NCC(=O)Nc1ccc(Cl)nc1Cl | - | HepG2.2.15 | PCR | EC90 | - | >100 µM
O=c1c(O)c(-c2ccc(O)c(O)c2)oc2cc(O)cc(O)c12 | - | HepG2.2.15 | ELISA / antigen | inhibition | 30 µM | 75.4%
COc1cccc(NC(=O)NCC(=O)Nc2ccc(Cl)nc2Cl)c1 | - | HepG2.2.15 | PCR | EC90 | - | >100 µM
C#CCNC(=O)C(=O)c1c(F)c(C(=O)Nc2ccc(F)c(C#N)c2)n(C)c1Cl | - | HepG2.2.15 | PCR | EC50 | - | 0.1–0.999 µM
COc1ccc(C(=O)N(C)CC(=O)Nc2ccc(Cl)cc2Cl)cc1 | - | HepG2.2.15 | PCR | EC90 | - | 17 µM
CNC(=O)C(=O)N1CC[C@@H](NS(=O)(=O)c2cn(C)c(C(=O)Nc3ccc(F)c(Cl)c3)c2F)C1 | - | HepAD38 cells | PCR | EC50 | - | <0.1 µM
C.O=C(Nc1ccc(F)c(F)c1)c1cc(S(=O)(=O)N2CC(F)(F)C2)ccc1F | - | - | - | inhibition | 6.3 µM | 90%
CCNC(=O)C(=O)N1CCC(NS(=O)(=O)c2cn(CC)c(C(=O)Nc3cc(F)c(F)c(F)c3)c2F)C(F)(F)C1 | - | HepAD38 cells | PCR | EC50 | - | <0.1 µM
COc1ccc2ccccc2c1/C=N/NC(=O)c1ccc(O)c(O)c1 | gtA | Huh7 | - | inhibition | 10 µM | >43%
CCNC(=O)C(=O)N1CC(NS(=O)(=O)c2cn(C)c(C(=O)Nc3cc(F)c(F)c(F)c3)c2F)C1 | - | HepAD38 cells | PCR | EC50 | - | <0.1 µM
Nc1ncnc2c1ncn2C[C@@H](CO)OCP(=O)(O)O | - | - | - | MIC | - | 0.1 µg/mL
C[C@@]12C(=O)N(CCCCN3C(=O)[C@@]4(C)C5CCC(O5)[C@@]4(C)C3=O)C(=O)[C@]1(C)C1CCC2O1 | - | HepG2.2.15 | PCR | inhibition | 0.003 µM | <40%
CCCc1cc(=O)nc(SC)n1CC1OC(OC)C(O)C1O | - | HepG2 2.2.15 | ELISA | inhibition | 100 µM | 30.5%
C=C[C@](CO)(NC(=O)C(=O)c1c(C)c(C(=O)Nc2ccc(F)c(C(F)(F)F)c2)n(C)c1C)C(F)(F)F | - | HepG2.2.15 | PCR | EC50 | - | 0.001–0.0099 µM
Cn1nc2cc(NS(=O)(=O)Nc3ccccc3)ccc2c1C(=O)Nc1ccc(F)c(Cl)c1 | - | HepAD38 | PCR | EC50 | - | 100–1000 µM
Nc1nc(N)c2ncn([C@H]3CO[C@@H](CO)O3)c2n1 | Wild | AD38 | - | EC90 | - | 113 µM
Cc1cc(C)c(C#N)c(=N)o1 | gtD | Huh7 | - | inhibition | 10 µM | >43%
CCOC(=O)[C@H](C)NP(=O)(OC[C@@H]1OC[C@H](n2cnc3c(NC(C)=O)nc(N)nc32)O1)Oc1ccccc1 | - | HepAD38 | PCR | EC90 | - | >10 µM
C[C@@H]1Cn2c(c(C(=O)NCc3ccccc3-n3ccc(F)n3)n(-c3ccc(OC4CC4)cc3)c2=O)CN1C(=O)c1ccc(Br)c(Cl)c1 | - | HepG2.117 | PCR | EC50 | - | 0.1–0.5 µM
CCCC(=O)Nc1nc(N)nc2c1ncn2[C@H]1CO[C@@H](CO)O1 | - | HepAD38 | PCR | EC90 | - | >10 µM
CCC(NS(=O)(=O)Nc1ccc2c(C(=O)Nc3ccc(F)c(Cl)c3)n(C)nc2c1)c1ccccn1 | - | HepAD38 | PCR | EC50 | - | 100–1000 µM
Nc1nc(NC2CC2)c2ncn([C@H]3CO[C@@H](CO)O3)c2n1 | Wild | AD38 | - | EC90 | - | >10 µM
C[C@H](c1ccccc1)N1C[C@@H](O)Cn2c(c3n(c2=O)CCN(C(=O)c2ccc(Br)c(Cl)c2)C3)C1=O | - | HepG2.117 | PCR | EC50 | - | 0.1–0.5 µM
COC1OC(CSc2nccc(=O)[nH]2)C(O)C1O | - | HepG2 2.2.15 | ELISA | inhibition | 100 µM | 88.5%
C#C[C@](CO)(NC(=O)C(=O)c1c(C)c(C(=O)Nc2ccc(F)c(C(F)(F)F)c2)n(C)c1C)C1CC1 | - | HepG2.2.15 | PCR | EC50 | - | <0.001 µM
Cn1nc2ccc(NC(=O)OCc3ccc(F)cc3)cc2c1C(=O)Nc1ccc(F)c(Cl)c1 | - | HepAD38 | PCR | EC50 | - | >1000 µM
CNC(=O)C(=O)N1CC[C@@H](NS(=O)(=O)c2cn(C)c(C(=O)Nc3ccc(F)c(C#N)c3)c2Cl)C1 | - | HepAD38 cells | PCR | EC50 | - | 0.1–0.3 µM
O=C(CNC(=O)c1ccc(F)cc1)Nc1ccc(Cl)nc1Cl | - | HepG2.2.15 | PCR | EC90 | - | 3.1 µM
CNC(=O)C(=O)N1CC2CC2(NS(=O)(=O)c2cn(C)c(C(=O)Nc3cc(F)c(F)c(F)c3)c2F)C1 | - | HepAD38 cells | PCR | EC50 | - | <0.1 µM
COC1OC(CSc2ncc(C)c(=O)[nH]2)C(O)C1O | - | HepG2 2.2.15 | ELISA | inhibition | 100 µM | 38.6%
CCCCCC(=O)Nc1nc(N)nc2c1ncn2[C@H]1CO[C@@H](COP(=O)(N[C@@H](C)C(=O)OCC)Oc2ccccc2)O1 | - | HepAD38 | PCR | EC90 | - | >10 µM
O=C1NNC(=O)c2c(ncn2[C@@H]2O[C@H](CO)[C@@H](O)[C@H]2O)N1 | - | 2.2.15 | - | EC10 | - | 30 µM
O=C(N/C(C(=O)N1CCCCC1)=C(/Cl)c1ccccc1)c1ccccc1 | - | 2.2.15 | - | EC90 | - | 59.8 µM
C#CC1(NC(=O)C(=O)c2c(C)c(C(=O)Nc3ccnc(Br)c3F)n(C)c2C)COC1 | - | HepG2.2.15 | PCR | EC50 | - | 0.01–0.099 µM
COCCCS(=O)(=O)N1CC[C@@H](NS(=O)(=O)c2cn(C)c(C(=O)Nc3ccc(F)c(F)c3)c2F)C1 | - | HepAD38 cells | PCR | EC50 | - | <0.1 µM
O=C(O[C@@H]1Cc2c(O)cc(O)cc2O[C@@H]1c1cc(O)c(O)c(O)c1)c1cc(O)c(O)c(O)c1 | - | - | PCR | inhibition | 25 µM | 36.3%
Cn1nc2cc(NS(=O)(=O)c3cnn(-c4cc(=O)cc[nH]4)c3)ccc2c1C(=O)Nc1ccc(F)c(Cl)c1 | - | HepAD38 | PCR | EC50 | - | 100–1000 µM
CCCc1cc(=O)[nH]c(SCC2OC(OC)C(O)C2O)n1 | - | HepG2 2.2.15 | ELISA | inhibition | 100 µM | 86.6%
Cc1c(S(=O)(=O)Nc2ccc3c(C(=O)Nc4ccc(F)c(Cl)c4)n(C)nc3c2)cnn1C | - | HepAD38 | PCR | EC50 | - | <100 µM
CCOC(=O)c1sc(NC(=O)CSc2nnc(Cc3ccccc3)o2)c(C#N)c1C | gtA | Huh7 | - | inhibition | 10 µM | >43%
Nc1ccn([C@@H]2C=C(F)[C@H](CO)O2)c(=O)n1 | - | HepAD38 | - | EC90 | - | 0.25 µM
CCCCCCCC(=O)Nc1nc(N)nc2c1ncn2[C@H]1CO[C@@H](CO)O1 | - | HepAD38 | PCR | EC90 | - | >10 µM
COc1ccc(CNC(=O)c2c3n(c(=O)n2-c2ccc(OC(C)C)cc2)CCN(C(=O)c2ccc(Br)c(Cl)c2)C3)cc1 | - | HepG2.117 | PCR | EC50 | - | 0.1–0.5 µM
CN(CC(=O)Nc1ccc(Cl)cc1Cl)C(=O)c1cccnc1 | - | HepG2.2.15 | PCR | EC90 | - | >100 µM
Cn1nc2cc(NS(=O)(=O)NC3CNC3)ccc2c1C(=O)Nc1ccc(F)c(Cl)c1 | - | HepAD38 | PCR | EC50 | - | >1000 µM
Nc1ccn(C[C@@H](CO)OCP(=O)(O)O)c(=O)n1 | - | - | - | MIC | - | 10 µg/mL
Nc1nc2c(ncn2[C@H]2CO[C@@H](CO)O2)c(=O)[nH]1 | Wild | AD38 | - | EC90 | - | >100 µM
CNS(=O)(=O)N1CC[C@@H](NS(=O)(=O)c2c(F)c(C(=O)Nc3ccc(F)c(F)c3)n(C)c2Br)C1 | - | HepAD38 cells | PCR | EC50 | - | <0.1 µM
O=C(NCc1ccccc1-c1ncccn1)c1c2n(c(=O)n1-c1ccc(OC3CC3)cc1)CCN(C(=O)c1ccc(Br)c(Cl)c1)C2 | - | HepG2.117 | PCR | EC50 | - | <0.1 µM
Cn1cc(S(=O)(=O)NC2CCN(S(=O)(=O)C3(C)CC3)CC2)c(F)c1C(=O)Nc1ccc(F)c(F)c1 | - | HepAD38 cells | PCR | EC50 | - | <0.1 µM
C=C1[C@@H](n2cnc3c(N)ncnc32)[C@H](F)[C@H](O)[C@H]1CO | - | Huh7 | - | EC90 | - | 6 µM

5 of the rows above, restated:

compound | strain | cells | method | measure | tested at | value
C.O=C(Nc1ccc(F)c(F)c1)c1cc(S(=O)(=O)N2CC(F)(F)C2)ccc1F | - | - | - | inhibition | 6.3 µM | 90%
CCCC(=O)Nc1nc(N)nc2c1ncn2[C@H]1CO[C@@H](CO)O1 | - | HepAD38 | PCR | EC90 | - | >10 µM
Nc1ccn([C@@H]2C=C(F)[C@H](CO)O2)c(=O)n1 | - | HepAD38 | - | EC90 | - | 0.25 µM
Cc1cc(C)c(C#N)c(=N)o1 | gtD | Huh7 | - | inhibition | 10 µM | >43%
Cn1nc2ccc(NC(=O)OCc3ccc(F)cc3)cc2c1C(=O)Nc1ccc(F)c(Cl)c1 | - | HepAD38 | PCR | EC50 | - | >1000 µM